Data from patent US12564622B2, “Preventing cytokine release syndrome” (priority 2017, dated 2026).

Tested on: Raji-bearing NSGS mice with low tumour burden treated with hCART19
Assay: hCART19 treatment of Raji-bearing NSGS mice, low tumour burden
Format: in vivo, mouse (NSGS)
Description: Six to eight weeks old female NSG-SGM3 (NSGS) mice (NOD.Cg-Prkdcscid Il2rgtm1WjlTg (CMV-IL3, CSF2, KITLG) 1Eav/MloySzJ, Stock #013062) were purchased from the Jackson Laboratory. Raji cells were transfected with a luciferase construct via lentivirus to create Raji-luc cells. NSGS is a triple transgenic strain expressing human IL3, GM-CSF and SCF combine the features of the highly immunodeficient NOD scid gamma (NSG) mouse. One day before the injection of Raji cells, mice were irradiated at a dose of 2 Gy in a CIXD Xstahl device. In high tumor burden experiments in FIG. 5, 10^6 Raji-luc cells were injected IV via tail vein. Six days later, tumor loads were assessed using a Xenogen instrument and 15×10^6 hCART19 cells or untransduced T-cells were injected IV. In low tumor burden experiments in FIG. 6, 2×10^5 Raji-luc cells were injected IV via tail vein. Four days later, tumor loads were assessed using a Xenogen instrument and 15×10^6 hCART19 cells were injected IV. Metyrosine was injected IP at 60 mg/kg/day for three days before the hCART19 injection. On the day of CART19 injection, a fourth dose of 60 mg/kg was given IP and the mice were subsequently injected four more times at daily intervals at 30 mg/kg.

In the case of `C[C@](N)(Cc1ccc(O)cc1)C(=O)O` [metyrosine, α-methyl-tyrosine], the “in vivo CART cell expansion or tumor clearance” value is reported as “Neither metyrosine nor ANP substantially interfered”.
